Anti-infective test results gathered from many reports (values: NIAID ChemDB through PubChem).

All rows: growth or infection tests; organism: HIV-1; cell line: CEM-SS; endpoint: EC50

An empty or dashed field is not shown. Lines come from different laboratories, so protocols vary. ECn: concentration that inhibits the pathogen or its effect by n%.

| smiles | strain | read by | result |
|---|---|---|---|
| C[C@H]1CO[C@@H]2CN3C=C(C(=O)NCc4nc5c(s4)CCCCC5)C(=O)C(=O)C3C(=O)N12 | IIIB | XTT | 0.0393 µM |
| CCc1nc2sc(C(N)=O)c(N)c2cc1C | RF | XTT | >330 µM |
| C[C@H]1CO[C@]23CCC[C@H]2N2C=C(C(=O)NCc4ccc(F)nc4F)C(=O)C(=O)C2CN13 | IIIB | XTT | 0.0478 µM |
| O=C1Cc2cc(-c3ccco3)ccc2C(=O)N1O | IIIB | cytopathic effect / absorbance | >10 µM |
| Cc1cc(O)c(O)c(O)c(=O)c1 | RF | cytopathic effect / absorbance | >50 µM |
| NCCS | - | - | >100 µM |
| CC(=O)c1cccc(NC(=O)c2sc3nc(C)cc(C)c3c2N)c1 | RF | XTT | >63 µM |
| COc1c(-c2cc(C)[nH]n2)c(O)c(S(=O)(=O)Oc2ccc([N+](=O)[O-])cc2)c2occc12 | RF | cytopathic effect / MTS | 0.000038 µM |
| Cc1cc(C)c2c(N)c(C(=O)Nc3cccc(F)c3)sc2n1 | RF | XTT | >100 µM |
| COC(=O)c1c(C)cc(OC)c(O)c(=O)c1OC | RF | cytopathic effect / absorbance | >50 µM |
| O=C1Cc2cc(-c3ccc(F)c(F)c3)ccc2C(=O)N1O | IIIB | cytopathic effect / absorbance | >10 µM |
| C/C(=C(/CCO)SS/C(CCO)=C(\C)N(C=O)Cc1cnc(C)nc1N)N(C=O)Cc1cnc(C)nc1N | - | p24 | >100 µM |
| O=C1Cc2ccc(-c3cc4ccccc4o3)cc2C(=O)N1O | IIIB | cytopathic effect / absorbance | >10 µM |
| C[C@H]1CO[C@@H]2CN3C=C(C(=O)NCc4ccc(Cl)nc4)C(=O)C(=O)C3C(=O)N12 | IIIB | XTT | 0.0277 µM |
| COc1c(-c2cc(C)n(C)n2)c(O)c(S(=O)(=O)OC2CCCCC2)c2occc12 | RF | cytopathic effect / MTS | 0.000046 µM |
| C[C@H]1CO[C@@H]2CN3C=C(C(=O)NCc4nc5cc(Cl)ccc5n4C)C(=O)C(=O)C3C(=O)N12 | IIIB | XTT | 0.0387 µM |
| COc1c2ccoc2c(S(=O)(=O)Oc2ccc(F)cc2)c2oc(C)cc(=O)c12 | RF | cytopathic effect / MTS | 0.000081 µM |
| C[C@H]1CO[C@@H]2CN3C=C(C(=O)NCc4ccc5[nH]c(=O)[nH]c5c4)C(=O)C(=O)C3C(=O)N12 | IIIB | XTT | 0.0174 µM |
| O=C1Cc2ccc(-c3ccc(F)c(F)c3)cc2C(=O)N1O | IIIB | cytopathic effect / absorbance | >10 µM |
| O=C1OCc2cc(=O)c(O)c(O)c(O)c21 | RF | cytopathic effect / absorbance | >50 µM |
| COc1c2ccoc2c(S(=O)(=O)OC2CCCCC2)c2oc(C)cc(=O)c12 | RF | cytopathic effect / MTS | 0.000089 µM |
| CCn1nc(C)c(CNC(=O)C2=CN3C[C@H]4OC[C@H](C)N4C(=O)C3C(=O)C2=O)c1C | IIIB | XTT | 0.0309 µM |
| COc1c(C(=O)/C=C(/C)Nc2ccccc2)c(O)c(S(=O)(=O)OC2CCCCC2)c2occc12 | RF | cytopathic effect / MTS | 0.000074 µM |
| COCc1cc(C)nc2sc(C(=O)Nc3cccc(C(C)=O)c3)c(N)c12 | RF | XTT | >63 µM |
| C[C@H]1CO[C@@H]2CN3C=C(C(=O)NCc4cn5ncsc5n4)C(=O)C(=O)C3C(=O)N12 | IIIB | XTT | 0.0336 µM |
| COc1c(-c2cc(C)on2)c(O)c(S(=O)(=O)OC2CCCCC2)c2occc12 | RF | cytopathic effect / MTS | 0.000057 µM |

A second listing of 2 rows from above:

smiles | strain | read by | result
NCCS | - | - | >100 µM
C[C@H]1CO[C@@H]2CN3C=C(C(=O)NCc4ccc5[nH]c(=O)[nH]c5c4)C(=O)C(=O)C3C(=O)N12 | IIIB | XTT | 0.0174 µM